Compound potency records, mixed from different reports. Data source: NIAID ChemDB in PubChem.

Common to all: tests on isolated targets; species: HIV-1; protein: Reverse transcriptase; measure: inhibition

Neighbouring rows are from separate reports. Blank or dashed fields: not listed here. Percent inhibition refers to the dose given; in toxicity tests it is the harm to the cells. Two numbers with a dash give a range or band.

structure	strain	method	dose	value
N#CC1C=Cc2ccccc2N1C(=O)c1ccncc1		nucleotide incorporation	50 µM	≤30%
O=C(CC(=O)Nc1ccc2ccccc2n1)Nc1ccc(Br)cn1		RT activity / absorbance	100 µM	80.22%
CCCCOC(=O)N1c2ccccc2C=CC1C#N		nucleotide incorporation	50 µM	88.9%
C[C@@H]1CN(c2nc3c(cc2F)c(=O)c(C(=O)O)cn3-c2cccc3ccccc23)C[C@H](C)N1		ELISA	1 µg/mL	39%
Nc1ncnc2c1ncn2[C@@H]1O[C@H](COP(=O)([O-])O[C@@H]2C[C@@H](COP(=O)([O-])O)O[C@H]2n2cnc3c(N)ncnc32)[C@@H](O)[C@H]1OP(=O)([O-])OC[C@@H]1C[C@@H](O)[C@H](n2cnc3c(N)ncnc32)O1	IIIB		10 µM	20%
CCCN1C(=O)c2ccnnc2Oc2ccc(C)cc21		ELISA	330 µM	83%
N#CC1C=Cc2ccccc2N1C(=O)c1ccccc1S		nucleotide incorporation	50 µM	≤30%
COc1ccc2c(c1)N(C(C)C)C(=O)c1cc(Cl)nnc1O2		ELISA	330 µM	46%
CCN1c2ncc(CCc3ccccc3)cc2-c2nnsc2-c2cccnc21		nucleotide incorporation	1 µM	89%
CCCCCCCCCCCCCCc1sc(NC(=O)NCCc2ccccc2)nc1-c1ccc(Cl)cc1		nucleotide incorporation	1 µg/mL	1%
Nc1ncnc2c1ncn2[C@@H]1O[C@H](COP(=O)(O)O[C@@H]2[C@H](O)[C@@H](COP(=O)(O)O[C@@H]3[C@H](O)[C@@H](COP(=O)(O)O)O[C@H]3n3cnc4c(N)ncnc43)O[C@H]2n2cnc3c(N)ncnc32)[C@@H](O)[C@H]1O	IIIB		10 µM	18%
CCCCN1C(=O)c2cc(Cl)nnc2Oc2ccc(C)cc21		ELISA	330 µM	27%
C=C(C)OC(=O)N1c2ccc(OC)cc2C=CC1C#N		nucleotide incorporation	50 µM	≤30%
CCCN1C(=O)c2ccnnc2Oc2ccc(C(F)(F)F)cc21		ELISA	330 µM	27%
O=C(CC(=O)Nc1ccc2ccccc2n1)Nc1cc(CCl)ccn1		RT activity / absorbance	100 µM	81.57%
CCCN1C(=O)c2ccnnc2Oc2ccc(OC)cc21		ELISA	330 µM	55%
CCN1c2ncccc2-c2cscc2-c2ccc(-c3cn[nH]c3)nc21		nucleotide incorporation	1 µM	92%
CS(=O)(=O)O.O=C(O)c1cn(-c2cccc3ccccc23)c2cc(N3CCNCC3)c(F)cc2c1=O		ELISA	1 µg/mL	40%
O=C(CC(=O)Nc1ncc(C(F)(F)F)cc1C(F)(F)F)Nc1ccc2ccccc2n1		RT activity / absorbance	100 µM	79.34%
N#CC1C=Cc2cc([N+](=O)[O-])ccc2N1C(=O)OCCBr		nucleotide incorporation	50 µM	47.3%
Cc1cc(C)c2c(c1)N(C(C)C)C(=O)c1ccnnc1O2		ELISA	330 µM	94%
Nc1ncnc2c1ncn2C1OC(CO)CC1OP(=O)(O)OCC1CC(OP(=O)(O)OCC2OC(n3cnc4c(N)ncnc43)C(O)C2O)C(n2cnc3c(N)ncnc32)O1	IIIB		10 µM	16%
CS(=O)(=O)O.N[C@H]1CCN(c2cc3c(cc2F)c(=O)c(C(=O)O)cn3-c2ccc3ccccc3c2)C1		ELISA	1 µg/mL	50%
O=C(CC(=O)Nc1ccc2ccccc2n1)Nc1cc(Br)ccn1		RT activity / absorbance	100 µM	82.64%
Nc1ncnc2c1ncn2C1OC(COP(=O)(O)OC2CC(COP(=O)(O)OC3CC(CO)OC3n3cnc4c(N)ncnc43)OC2n2cnc3c(N)ncnc32)CC1O	IIIB		10 µM	15%
O=C1NC(c2c[nH]c3ccc(O)cc23)=C/C1=C1\C(=O)NC2C=CC=CC12		RT activity / ELISA	300 µM	61.95%
N#Cc1csc(NC(=O)NCCc2ccccc2)n1		nucleotide incorporation	1 µg/mL	93–95%
Nc1ncnc2c1ncn2C1OC(COP(=O)(O)OC2CC(COP(=O)(O)OC3C(O)C(CO)OC3n3cnc4c(N)ncnc43)OC2n2cnc3c(N)ncnc32)CC1O	IIIB		10 µM	13%
O=C(NCCc1ccccc1)Nc1ccc(Cl)cc1		nucleotide incorporation	1 µg/mL	29%
CC1CN(c2nc3c(cc2F)c(=O)c(C(=O)O)cn3-c2ccc3ccccc3c2)CCN1.CS(=O)(=O)O		ELISA	1 µg/mL	25%
N#Cc1ccnc(NC(=O)CC(=O)Nc2ccc3ccccc3n2)c1		RT activity / absorbance	100 µM	62.73%
CCOC(=O)N1c2cc3c(cc2C=CC1C#N)OCO3		nucleotide incorporation	50 µM	44.1%
Nc1ncnc2c1ncn2C1OC(COP(=O)(O)OC2C(O)C(COP(=O)(O)OC3CC(CO)OC3n3cnc4c(N)ncnc43)OC2n2cnc3c(N)ncnc32)CC1O	IIIB		10 µM	14%
CCOc1ccccc1CCNC(=S)Nc1nccs1		nucleotide incorporation	10 µg/mL	33%
CS(=O)(=O)O.O=C(O)c1cn(-c2cccc3ccccc23)c2nc(N3CCNCC3)c(F)cc2c1=O		ELISA	1 µg/mL	45%
O=C(NCCc1ccccc1)Nc1nc(-c2ccc(Cl)cc2)cs1		nucleotide incorporation	1 µg/mL	1%
C[Si](C)(CCCNC(=O)c1cc(Cl)ccc1N)O[Si](C)(C)CCCNC(=O)c1cc(Cl)ccc1N			400 µM	20%
O=C(NCCc1ccccc1)Nc1nc2ccc(F)cc2s1		nucleotide incorporation	0.1 µg/mL	33%
Cc1ccc(NC(=O)CC(=O)Nc2ccc3ccccc3n2)nc1		RT activity / absorbance	100 µM	90.8%

For reference, 3 entries again:

structure,strain,method,dose,value
CCCN1C(=O)c2ccnnc2Oc2ccc(OC)cc21,,ELISA,330 µM,55%
N#CC1C=Cc2cc([N+](=O)[O-])ccc2N1C(=O)OCCBr,,nucleotide incorporation,50 µM,47.3%
O=C(CC(=O)Nc1ccc2ccccc2n1)Nc1ccc(Br)cn1,,RT activity / absorbance,100 µM,80.22%